Pooled drug test results. Numbers come from NIAID ChemDB, via PubChem.

All rows: growth or infection tests; agent: HIV-1; method: syncytia; endpoint: EC50

Blank or dashed fields: not listed here.

smiles	mutations	cells	strain or isolate	value
Cc1cn([C@@H]2O[C@H](CO[Si](C)(C)C(C)(C)C)[C@@]3(OS(=O)(=O)C=C3N)[C@H]2O[Si](C)(C)C(C)(C)C)c(=O)[nH]c1=O	-	CEM	IIIB	0.05 µM
NCCCCCN1CCCN(CCCCCN)CCCN(CCCCCN)CCN(CCCCCN)CCC1	-	MT-4	LAV	1 µM
CN1Cc2c(c3c4ccccc4n(C)c3c3c2c2ccccc2n3CCC#N)C1=O	-	U1/HIV-1(PMA) + U1	-	>>1 µM
Nc1ncnc2c1ncn2CCOCP(=O)(O)O	RT-E138K	CEM	IIIB TSAO-T(RT-E138K)	15 µM
O=C1N(Cc2ccccc2)c2cscc2S(=O)(=O)N1Cc1ccccc1	RT-V106A	CEM	IIIB	≥10 µM
CC(C)=CCN1Cc2cc(Cl)cc3[nH]c(=S)n(c23)C[C@@H]1C	RT-E138K	CEM	IIIB	0.16 µM
CCN1C(=O)N(Cc2ccccc2)S(=O)(=O)c2cscc21	RT-K103N	CEM	IIIB	>310 µM
Cc1cc(C)cc(Sc2c(C(C)C)c(=O)[nH]c(=S)n2COCCO)c1	-	CEM	IIIB	0.003 µM
CCCN1C(=O)N(Cc2ccccc2)S(=O)(=O)c2cscc21	-	CEM	IIIB	14.9 µM
CCCCCCCCCCCC(=O)NCC(COP(=O)(O)OC[C@H]1O[C@@H](n2cc(C)c(=O)[nH]c2=O)C[C@@H]1N=[N+]=[N-])OCCCCCCCC	-	CEM	IIIB	<0.08 µM
CN1C(=O)N(Cc2ccccc2)S(=O)(=O)c2cscc21	RT-L100I	CEM	IIIB	12.9 µM
COC(=O)C(N)(O)Cc1c[nH]c2ccccc12	-	C8166	IIIB	83.32 µg/mL
CC(C)=CCN1Cc2cccc3[nH]c(=S)n(c23)C[C@@H]1C	TIBO-resistant	PBL	D34	75 µM
Cc1ccnc2c1NC(=O)c1cccnc1N2C1CC1	-	C8166	IIIB	0.0372 µM
NCCCCN1CCCN(CCCCN)CCN(CCCCN)CCCN(CCCCN)CC1	-	MT-4	LAV	10 µM
N#CCN1C(=O)N(Cc2ccccc2)S(=O)(=O)c2cscc21	RT-E138K	CEM	IIIB	7.2 µM
CC[C@H](C)[C@H](NC(=O)[C@H](C)NC(=O)CNC(=O)[C@@H](NC(=O)[C@H](C)N)C(C)C)C(=O)NCC(=O)O	-	HeLa + HELA CD4+	WMJ	~2500 µM
N#CCCn1c2ccc(O)cc2c2c3c(c4c5cc(O)ccc5[nH]c4c21)C(=O)NC3	-	U1/HIV-1(PMA) + U1	-	0.35 µM
OC[C@H]1[C@@H](O)[C@H](O)[C@H]2[C@@H](O)CCN21	-	JM	GB8	>1000 µM
O=c1[nH]cnc2c1ncn2[C@H]1CC[C@@H](CO)O1	RT-E138K	CEM	IIIB	5.3 µM
CCCCCCCCCC(=O)NCC(COP(=O)([O-])OCC[N+](C)(C)C)OCCCCCC	-	CEM	IIIB	1.5 µM
O=C(NCCCCCN1CCCN(CCCCCNC(=O)OCc2ccccc2)CCN(CCCCCNC(=O)OCc2ccccc2)CCCN(CCCCCNC(=O)OCc2ccccc2)CC1)OCc1ccccc1	-	MT-4	LAV	>10 µM
O=C(O)c1cc(O)c(O)c(O)c1	-	MOLT-3	IIIB	<5 µg/mL
O[C@H]1[C@H](O)[C@@H](O)CN2CC[C@H](O)[C@H]12	-	JM	GB8	<250 µM
CCCCCCCCCCCCCCCCCC(=O)NCC(COP(=O)([O-])OCC[N+](C)(C)C)OCCCCCCCC	-	CEM	IIIB	0.67 µM
Nc1ncnc2c1ncn2CCOCP(=O)(O)O	-	CEM + CEM/0	-	7 µM
Cn1c2ccccc2c2c3c(c4c5ccccc5n(CC(F)F)c4c21)CNC3=O	-	U1/HIV-1(PMA) + U1	-	0.04 µM
Cc1cn([C@@H]2O[C@H](CO[Si](C)(C)C(C)(C)C)C3(OS(=O)(=O)C=C3N)[C@H]2O[Si](C)(C)C(C)(C)C)c(=O)n(C)c1=O	RT-L100I Y181C	CEM	IIIB TIBO R82913 STR-1 (RT L100I Y181C)	>50 µM
O=C1Nc2cscc2S(=O)(=O)N1c1cccc(Cl)c1	-	CEM	IIIB	>63.5 µM
CCNc1cccnc1N1CCN(C(=O)c2cc3cc(OC)ccc3[nH]2)CC1	-	PBL	D34	0.03 µM
C#CCN1C(=O)N(Cc2ccccc2)S(=O)(=O)c2cscc21	RT-E138K	CEM	IIIB	30.1 µM
CCn1c(=O)c(C)cn([C@@H]2O[C@H](CO[Si](C)(C)C(C)(C)C)C3(OS(=O)(=O)C=C3N)[C@H]2O[Si](C)(C)C(C)(C)C)c1=O	RT-E138K	CEM	IIIB	>80 µM
C1CNCCNCCCN(CCCN2CCCNCCNCCCNCC2)CCNC1	-	MT-4	LAV	1 µM
O=C(/C=C/c1ccc(O)c(O)c1)OC1C[C@@](O)(C(=O)O)C[C@H](O)[C@@H]1O	-	C8166	IIIB	85.11 µg/mL
OC[C@@H]1[C@@H](O)[C@H](O)[C@H]2[C@@H](O)CCN21	-	JM	GB8	>1000 µM
Oc1cc(O)c2c(c1)O[C@H](c1ccc(O)c(O)c1)[C@@H](O)C2	-	C8166	IIIB	14.4 µg/mL
Nc1ncnc2c1ncn2CCOCP(=O)(O)O	RT-E138K	CEM	IIIB	7.5 µM
CCCCCCCCCCOC(CNC(=O)CCCCCCCCC)COP(=O)([O-])OCC[N+](C)(C)C	-	CEM	IIIB	0.06 µM
Nc1ccn([C@H]2CC[C@@H](CO)O2)c(=O)n1	RT-K103N	CEM	IIIB TIBO R82913 STR-2 (RT K103N)	0.02 µM
COc1cc([C@H]2c3cc(O)c(OC)cc3C[C@@H](CO)[C@@H]2COS(=O)(=O)[O-])ccc1O.[Na+]	-	C8166	IIIB	74.9 µg/mL
O=c1[nH]cnc2c1ncn2[C@H]1CC[C@@H](CO)O1	-	CEM	IIIB	5 µM
c1ccc(CNCCCCCN2CCCN(CCCCCNCc3ccccc3)CCN(CCCCCNCc3ccccc3)CCCN(CCCCCNCc3ccccc3)CC2)cc1	-	MT-4	LAV	1 µM

Repeating the final 6 entries:

smiles,mutations,cells,strain or isolate,value
Nc1ncnc2c1ncn2CCOCP(=O)(O)O,RT-E138K,CEM,IIIB,7.5 µM
CCCCCCCCCCOC(CNC(=O)CCCCCCCCC)COP(=O)([O-])OCC[N+](C)(C)C,-,CEM,IIIB,0.06 µM
Nc1ccn([C@H]2CC[C@@H](CO)O2)c(=O)n1,RT-K103N,CEM,IIIB TIBO R82913 STR-2 (RT K103N),0.02 µM
COc1cc([C@H]2c3cc(O)c(OC)cc3C[C@@H](CO)[C@@H]2COS(=O)(=O)[O-])ccc1O.[Na+],-,C8166,IIIB,74.9 µg/mL
O=c1[nH]cnc2c1ncn2[C@H]1CC[C@@H](CO)O1,-,CEM,IIIB,5 µM
c1ccc(CNCCCCCN2CCCN(CCCCCNCc3ccccc3)CCN(CCCCCNCc3ccccc3)CCCN(CCCCCNCc3ccccc3)CC2)cc1,-,MT-4,LAV,1 µM

ECn is the concentration giving n% inhibition of infection, replication or growth. Neighbouring rows are from separate reports.